# In article PMC12621019, “Restructuring Antiviral Quinazolinone Frameworks to Derive and Optimize Inhibitors of Chikungunya Virus” (ACS Medicinal Chemistry Letters, 2025):
# How the values were obtained:
# [1] = tested on: chikungunya virus strain 181/25; assay: microbe, parasite or virus in culture; conditions: Vero C1008, read-out: EC50 (capsid protein, high-content confocal imaging)
# [2] = tested on: chikungunya virus strain 181/25
smiles,measurement,setting,value
COc1c(F)cc(-n2c([C@H]3CCCCN3)nc3cc(N4CCN(C(C)C)CC4)c(Cl)cc3c2=O)cc1F [(R)-1h],EC50,[1],6 µM
same,effect on CHIKV induced cell death (confocal microscopy),[2],dose-dependent protective effect
same,EC50,"[2]; read-out: EC50 (capsid protein, high-content confocal imaging)",6.02 µM

# Like-named read-outs stand apart in the source and are kept apart here.
